Pooled drug test results. Numbers come from NIAID ChemDB, via PubChem.

All rows: host cell toxicity; measure: CC50

CCn: concentration that lowers growth or viability of the cells by n%.

smiles | cells | value
CC(C)CCCCCOP(=O)(COCCn1cnc2c(NC3CC3)nc(N)nc21)OCCCCCC(C)C | PHK | 9.7 µg/mL
CN1CCCCCC1C12CC3CC(CC(C3)C1)C2 | MDCK | 39 µM
Nc1nc2c(ncn2C(C=O)OC(C=O)CO)c(=O)[nH]1 | VERO E6 | >1040 µM
Nc1ncnc2c1ncn2[C@H]1CC[C@@H](CO)O1 | VERO E6 | >100 µM
C[C@H]1C[C@@H](n2cnc3c(N)nccc32)[C@H](O)[C@@H]1O | VERO E6 | >1016 µM
CN(C)c1ncnc2c1ncn2CCCOCP(=O)(O)O | PHK | 13.9 µg/mL
CC(N)C12CC3CC(CC(C3)C1)C2 | MDCK | >1160 µM
NC(=O)N=NC(N)=O | VERO | >200 µM
Nc1ncnc2c1nnn2C[C@@H](CO)OCP(=O)(O)O | PHK | 8.3 µg/mL
Nc1nccc2c1ncn2[C@@H]1C=C(CO)[C@@H](O)[C@H]1O | VERO E6 | >380 µM
C1CNC(C23CC4CC(CC(C4)C2)C3)C1 | MDCK | 1035 µM
Nc1ncnc2c1ncn2[C@@H]1C=C[C@@H](O)[C@H]1O | VERO E6 | >1700 µM
[N-]=[N+]=NCC(Cn1cnc2c(N)nc(N)nc21)OCP(=O)(O)O | PHK | >50 µg/mL
c1ccc(N=Nc2ccccc2)cc1 | VERO | >400 µM
C[C@H]1O[C@@H](n2cnc3c(N)ncnc32)[C@H](O)[C@@H]1O | VERO E6 | >100 µM
CNc1nc(N)nc2c1ncn2CCOCP(=O)(O)O | PHK | 8.9 µg/mL
C1CCC(C23CC4CC(CC(C4)C2)C3)NC1 | MDCK | 978 µM
Nc1ccn(C[C@@H](CO)OCP(=O)(O)O)c(=O)n1 | PHK | ≥34 µg/mL
C1CCN(CCN2CCCCCC2C23CC4CC(CC(C4)C2)C3)CC1 | MDCK | 840 µM

The first 2 rows once more:

CC(C)CCCCCOP(=O)(COCCn1cnc2c(NC3CC3)nc(N)nc21)OCCCCCC(C)C ; cells: PHK ; value: 9.7 µg/mL
CN1CCCCCC1C12CC3CC(CC(C3)C1)C2 ; cells: MDCK ; value: 39 µM

Conditions beyond the fields shown may differ between rows.